Results on 15 compounds are retold here after EP1215282A1, “METHOD OF DETECTING TRICHOTHECENE MYCOTOXINS AND REAGENT THEREOF” (dated 2001).

Conditions in all cases: relative reactivity based on the reactivity with the substance most reactive expressed as 1
In experiment [1] the test system is monoclonal antibody KTM-249. Kind of experiment: competitive ELISA, specificity of antibody KTM-249. For orientation: An ELISA detects its analyte on a solid surface through an enzyme-linked reagent.
Experiment [2] relates to monoclonal antibody KTM-205. As to the kind of experiment: competitive ELISA, specificity of antibody KTM-205.
The subject of experiment [3] is monoclonal antibody KTM-240. As to the kind of experiment: competitive ELISA, specificity of antibody KTM-240.

For `CC(=O)OC[C@]12[C@H](OC(C)=O)C(=O)C(C)=C[C@H]1O[C@@H]1[C@H](OC(C)=O)[C@@H](OC(C)=O)[C@@]2(C)[C@]12CO2`, the “Reactivity of Antibodies KTM-249” value in experiment [1] was “-”. The “Reactivity of Antibodies KTM-205” value in experiment [2] was less than 0.01. Moreover, the “Reactivity of Antibodies KTM-240” value in experiment [3] is less than 0.01.
On to T-2 toxin, for which, in experiment [1], the “Reactivity of Antibodies KTM-249” value is given as 1.00. Also, the “Reactivity of Antibodies KTM-205” value in experiment [2] is “-”. Moreover, the “Reactivity of Antibodies KTM-240” value in experiment [3] is given as “-”.
For the compound `CC(=O)OC[C@]12[C@H](O)C(=O)C(C)=C[C@H]1O[C@@H]1[C@H](O)[C@@H](OC(C)=O)[C@@]2(C)[C@]12CO2`, the “Reactivity of Antibodies KTM-249” value in experiment [1] is listed as “-”. Moreover, the “Reactivity of Antibodies KTM-205” value in experiment [2] stood at 0.02. Moreover, the “Reactivity of Antibodies KTM-240” value in experiment [3] amounted to 0.02.
For the compound `CC(=O)OC[C@]12C[C@H](OC(=O)CC(C)C)C(C)=C[C@H]1O[C@@H]1[C@H](O)[C@@H](O)[C@@]2(C)[C@]12CO2`, in experiment [1], the “Reactivity of Antibodies KTM-249” value came out at 1.00. In addition, the “Reactivity of Antibodies KTM-205” value in experiment [2] is on record as “-”. In addition, the “Reactivity of Antibodies KTM-240” value in experiment [3] is recorded as “-”.
`CC1=C[C@H]2O[C@@H]3[C@H](O)C[C@](C)([C@@]2(CO)[C@H](O)C1=O)[C@]31CO1`: in experiment [1], the “Reactivity of Antibodies KTM-249” value is given as “-”. Moreover, in experiment [2], the “Reactivity of Antibodies KTM-205” value is “-”. Moreover, the “Reactivity of Antibodies KTM-240” value in experiment [3] is listed as “-”.
`CC1=C[C@H]2O[C@@H]3[C@H](O)[C@@H](O)[C@](C)([C@@]2(CO)[C@H](O)C1=O)[C@]31CO1`: in experiment [1], the “Reactivity of Antibodies KTM-249” value is given as “-”. In addition, the “Reactivity of Antibodies KTM-205” value in experiment [2] is on record as “-*”. In addition, the “Reactivity of Antibodies KTM-240” value in experiment [3] is listed as “-”.
Take `CC(=O)OC[C@]12[C@H](OC(C)=O)C(=O)C(C)=C[C@H]1O[C@@H]1[C@H](OC(C)=O)C[C@@]2(C)[C@]12CO2`: in experiment [1], the “Reactivity of Antibodies KTM-249” value is “-”. In addition, in experiment [2], the “Reactivity of Antibodies KTM-205” value is listed as “-”. Moreover, in experiment [3], the “Reactivity of Antibodies KTM-240” value is 0.04.
As for `CC(=O)O[C@@H]1C[C@]2(C)[C@@]3(CO)[C@H](O)C(=O)C(C)=C[C@H]3O[C@H]1[C@@]21CO1`, in experiment [1], the “Reactivity of Antibodies KTM-249” value is reported as “-”. In experiment [2], the “Reactivity of Antibodies KTM-205” value was “-”. For the same compound, the “Reactivity of Antibodies KTM-240” value in experiment [3] is on record as “-”.
For `CC(=O)OC[C@]12[C@H](O)C(=O)C(C)=C[C@H]1O[C@@H]1[C@H](OC(C)=O)[C@@H](OC(C)=O)[C@@]2(C)[C@]12CO2`, in experiment [1], the “Reactivity of Antibodies KTM-249” value is recorded as “-”. In addition, the “Reactivity of Antibodies KTM-205” value in experiment [2] was 1.00. Further, in experiment [3], the “Reactivity of Antibodies KTM-240” value came out at 1.00.
On to `CC(=O)OC[C@]12[C@H](O)C(=O)C(C)=C[C@H]1O[C@@H]1[C@H](OC(C)=O)C[C@@]2(C)[C@]12CO2`, for which, in experiment [1], the “Reactivity of Antibodies KTM-249” value is given as “-”. Also, in experiment [2], the “Reactivity of Antibodies KTM-205” value is given as “-”. The “Reactivity of Antibodies KTM-240” value in experiment [3] is recorded as 1.00.
Consider `CC(=O)OC[C@]12[C@H](OC(C)=O)C(=O)C(C)=C[C@H]1O[C@@H]1[C@H](O)[C@@H](OC(C)=O)[C@@]2(C)[C@]12CO2`, for which the “Reactivity of Antibodies KTM-249” value in experiment [1] is reported as “-”. Further, the “Reactivity of Antibodies KTM-205” value in experiment [2] is on record as less than 0.01. In experiment [3], the “Reactivity of Antibodies KTM-240” value is “-”.
Consider `CC(=O)OC[C@]12[C@H](O)C(=O)C(C)=C[C@H]1O[C@@H]1[C@H](O)C[C@@]2(C)[C@]12CO2`, for which the “Reactivity of Antibodies KTM-249” value in experiment [1] is “-”. In addition, the “Reactivity of Antibodies KTM-205” value in experiment [2] is on record as “-”. The “Reactivity of Antibodies KTM-240” value in experiment [3] came out at 0.02.
For `CC(=O)OC[C@]12C[C@H](OC(=O)CC(C)C)C(C)=C[C@H]1O[C@@H]1[C@H](OC(C)=O)[C@@H](OC(C)=O)[C@@]2(C)[C@]12CO2`, the “Reactivity of Antibodies KTM-249” value in experiment [1] worked out at 0.78. Moreover, the “Reactivity of Antibodies KTM-205” value in experiment [2] is on record as “-”. Moreover, the “Reactivity of Antibodies KTM-240” value in experiment [3] is “-”.
For the compound `CC(=O)O[C@@H]1[C@@H](O)[C@H]2O[C@@H]3C=C(C)C(=O)[C@@H](O)[C@]3(CO)[C@]1(C)[C@]21CO1`, the “Reactivity of Antibodies KTM-249” value in experiment [1] is “-”. Further, the “Reactivity of Antibodies KTM-205” value in experiment [2] is listed as less than 0.01. In experiment [3], the “Reactivity of Antibodies KTM-240” value is “-”.
As to `CC(=O)O[C@@H]1[C@@H](OC(C)=O)[C@]2(C)[C@@]3(CO)[C@H](O)C(=O)C(C)=C[C@H]3O[C@H]1[C@@]21CO1`, the “Reactivity of Antibodies KTM-249” value in experiment [1] is “-”. Besides, in experiment [2], the “Reactivity of Antibodies KTM-205” value is on record as 0.01. For the same compound, the “Reactivity of Antibodies KTM-240” value in experiment [3] is recorded as less than 0.01.
